Results of unrelated studies side by side (data: NIAID ChemDB).

Common to all: growth or infection tests; agent: Cryptosporidium parvum; read-out: EC50

Blank or dashed fields: not listed here. a–b is a range or a potency band. Lines come from different laboratories, so protocols vary. ECn: concentration that inhibits the pathogen or its effect by n%.

| SMILES | cell line | result |
|---|---|---|
| COc1cc(/C=C2\Oc3cc(O)cc(O)c3C2=O)cc(OC)c1O |  | 25–50 µM |
| O=C1c2cccc(O)c2C(=O)c2cn[nH]c21 |  | >100 µM |
| COc1cc(/C=C2\Oc3cc(O)cc(O)c3C2=O)ccc1O |  | 25–50 µM |
| CC[C@H]1OC(=O)[C@H](C)[C@@H](O[C@H]2C[C@@](C)(OC)[C@@H](O)[C@H](C)O2)[C@H](C)[C@@H](O[C@@H]2O[C@H](C)C[C@H](N(C)C)[C@H]2O)[C@](C)(O)C[C@@H](C)CN(C)[C@H](C)[C@@H](O)[C@]1(C)O | A549 | >8 µg/mL |
| COc1cc(/C=C2\Oc3cc(O)cc(O[C@@H]4O[C@H](CO)[C@@H](O)[C@H](O)[C@H]4O)c3C2=O)cc(OC)c1O |  | 10–25 µM |
| Cc1cccc2c1C(=O)c1cnn(C)c1C2=O |  | >100 µM |
| CCN(CC)CCSc1c2ccccc2nc2cc(N)ccc12 |  | >50 µg/mL |
| CCn1ncc2c1C(=O)c1c(O)ccc(O)c1C2=O |  | >100 µM |
| CCSc1c2ccccc2nc2cc([N+](=O)[O-])ccc12 |  | >10 µg/mL |
| O=C1/C(=C/c2ccc(O)cc2O)Oc2cc(O)ccc21 |  | 10–25 µM |
| CCn1nc(Cc2ccccc2)c2c1C(=O)c1c(OC(C)=O)c(C)c(C)c(OC(C)=O)c1C2=O |  | >100 µM |
| CC(=O)Oc1ccccc1C(=O)Nc1ncc([N+](=O)[O-])s1 | A549 | <8 µg/mL |
| CCSc1c2ccccc2nc2cc(Cl)ccc12 |  | >10 µg/mL |
| COc1ccc(/C=C2\Oc3cc(O)cc(O)c3C2=O)cc1O |  | 10–25 µM |
| Nc1ccc2c(SCc3ccc([N+](=O)[O-])cc3)c3ccccc3nc2c1 |  | >10 µg/mL |
| COc1cc(C)cc2c1C(=O)c1cnn(C)c1C2=O |  | 50–100 µM |
| O=C1/C(=C/c2ccc(O)cc2)Oc2cc(O)ccc21 |  | 25–50 µM |
| O=[N+]([O-])c1ccc(CSc2c3ccccc3nc3cc(Cl)ccc23)cc1 |  | >50 µg/mL |

Repeating the final 2 entries:

| SMILES | cell line | result |
|---|---|---|
| O=C1/C(=C/c2ccc(O)cc2)Oc2cc(O)ccc21 |  | 25–50 µM |
| O=[N+]([O-])c1ccc(CSc2c3ccccc3nc3cc(Cl)ccc23)cc1 |  | >50 µg/mL |